Measured values from several laboratories, pooled; numbers as filed in NIAID ChemDB.

Shared fields: growth or infection tests; agent: HIV-1; cells: MT-4; endpoint: EC90

Neighbouring rows are from separate reports. a–b is a range or a potency band. ECn is the concentration giving n% inhibition of infection, replication or growth.

CCOP(=O)(OC[C@H]1O[C@@H](n2cc(C)c(=O)[nH]c2=O)C[C@@H]1N=[N+]=[N-])C(=O)N1CCOCC1 ; strain: GKV-4046 ; read by: p24 ; result: 0.0021 µM
CC(C)=CCN1Cc2cc(Cl)cc3[nH]c(=S)n(c23)C[C@@H]1C ; strain: IIIB/LAI ; read by: p24 ; result: 0.05–0.1 µg/mL
CCOP(=O)(OC[C@@H]1C=C[C@H](n2cc(C)c(=O)[nH]c2=O)O1)C(N)=O ; strain: GKV-4046 ; read by: p24 ; result: 2.1 µM
C=C(C)C12C[C@@H](COCc3ccccc3)[C@@]3(OO1)[C@@H]1[C@H]2OCCCCCCC[C@@H](C)[C@H]2[C@H](C)C(=O)[C@@](O)([C@H](O)[C@@]4(CO)O[C@@H]14)[C@@H]23 ; strain: NL4-3 ; read by: p24 / ELISA ; result: 0.0017 µM
CCc1cc(NCc2nc3c(Cl)ccc(Cl)c3o2)c(=O)[nH]c1C ; strain: IIIB ; read by: p24 ; result: 0.11 µM
Cc1cn([C@H]2C[C@H](N=[N+]=[N-])[C@@H](CO)O2)c(=O)[nH]c1=O ; strain: IIIB ; read by: cytopathic effect / p24 / trypan blue ; result: 0.37 µM
CC(C)c1nc(CN(C)C(=O)N[C@H](C(=O)N[C@@H](Cc2ccccc2)C[C@H](O)[C@H](Cc2ccccc2)NC(=O)OCc2cncs2)C(C)C)cs1 ; strain: NL4-3 ; read by: p24 ; result: 0.08 µM
CC(C)c1c(CO)cn(Cc2ccncc2)c1Sc1ccccc1 ; strain: IIIB ; read by: cytopathic effect / MTT ; result: 0.15 µM
O=c1[nH]cnc2c1ncn2[C@H]1CC[C@@H](CO)O1 ; strain: XM-T69SSS ; mutations: RT-T69SSS L210W T215Y ; read by: p24 ; result: 8.8 µM
CC(=O)c1ccc(C)cc1NC(C(N)=O)c1c(Cl)cccc1Cl ; strain: IIIB ; read by: cytopathic effect / MTT ; result: 0.021 µg/mL
CC(C)CN(C[C@@H](O)[C@H](Cc1ccccc1)NC(=O)[C@@H](NC(=O)CNCc1cccc(F)c1)C(C)(C)C)S(=O)(=O)c1ccc(N)cc1 ; strain: HXB2 ; read by: p24 ; result: 0.012 µM
CCOC(=O)P(=O)(OC[C@H]1O[C@@H](n2cc(C)c(=O)[nH]c2=O)C[C@@H]1N=[N+]=[N-])OC12CC3CC(CC(C3)C1)C2 ; strain: GKV-4046 ; read by: p24 ; result: 3.9 µM
Cc1c(O)cccc1C(=O)N[C@@H](CSc1ccccc1)[C@H](O)CN1C[C@H]2CCCC[C@H]2C[C@H]1C(=O)NC(C)(C)C ; strain: IIIB ; read by: cytopathic effect / MTT ; result: 0.024 µg/mL
Cc1cn([C@H]2C[C@H](N=[N+]=[N-])[C@@H](COP(=O)(OCC(C)(C)C)C(N)=O)O2)c(=O)[nH]c1=O ; strain: GKV-4046 ; read by: p24 ; result: <0.22 µM
O=c1cc(Cc2ccccc2)[nH]c(=O)[nH]1 ; strain: IIIB ; read by: MTT / virus yield ; result: >200 µM
C=C(C)C12C[C@@H](C)[C@@]3(OO1)[C@H]([C@H]2O/C=C/C=C/CCCCCCCCC)[C@@H]1O[C@]1(CO)[C@@H](O)[C@]1(O)C(=O)C(C)=C[C@H]13 ; strain: NL4-3 ; read by: p24 / ELISA ; result: 0.0058 µM
CCc1cc(NCc2nc3c(Cl)ccc(Cl)c3o2)c(=O)[nH]c1C ; strain: MF ; read by: antigen ; result: 0.1 µM
Cc1cn([C@H]2C=C[C@@H](CO)O2)c(=O)[nH]c1=O ; strain: IIIB ; read by: cytopathic effect / MTT ; result: 4.2 µM
CC(C)c1c(COC(N)=O)cn(Cc2ccncc2)c1Sc1cc(Cl)cc(Cl)c1 ; strain: IIIB ; read by: cytopathic effect / MTT ; result: 1 µM
CC(=O)c1ccccc1NC(C(N)=O)c1c(Cl)cccc1Cl ; strain: DLV-resistant IIIB (RT-L100I) ; mutations: RT-L100I ; read by: p24 ; result: 6.5 µM
Cc1cn([C@H]2C[C@H](N=[N+]=[N-])[C@@H](CO)O2)c(=O)[nH]c1=O ; strain: IIIB ; read by: cytopathic effect / XTT ; result: 0.08 µM
Cc1cn([C@H]2C[C@H](N=[N+]=[N-])[C@@H](CO)O2)c(=O)[nH]c1=O ; strain: IIIB ; read by: cytopathic effect / MTT ; result: 0.029 µM
CC(C)=CCN1Cc2cc(Cl)cc3[nH]c(=S)n(c23)C[C@@H]1C ; strain: IIIB ; read by: cytopathic effect / XTT ; result: 0.65 µM
CC(C)CN(C[C@@H](O)[C@H](Cc1ccccc1)NC(=O)O[C@H]1CCOC1)S(=O)(=O)c1ccc(N)cc1 ; strain: NL4-3 ; read by: p24 ; result: 0.08 µM
Nc1ccn([C@H]2CC[C@@H](CO)O2)c(=O)n1 ; strain: IIIB ; read by: cytopathic effect / MTT ; result: 0.042 µg/mL
S=c1[nH]c2cc(Cl)cc3c2n1CCN1CCCCC31 ; strain: IIIB ; read by: cytopathic effect / MTT ; result: >200 µM
Cc1cn([C@H]2C[C@H](N=[N+]=[N-])[C@@H](COP(=O)(OC(C)C)C(N)=O)O2)c(=O)[nH]c1=O ; strain: GKV-4046 ; read by: p24 ; result: 0.006 µM
CC(C)c1nc(CN(C)C(=O)N[C@H](C(=O)N[C@@H](Cc2ccccc2)C[C@H](O)[C@H](Cc2ccccc2)NC(=O)OCc2cncs2)C(C)C)cs1 ; strain: NL4-3 ; read by: p24 ; result: 0.2 µM
Cc1ccnc2c1NC(=O)c1cccnc1N2C1CC1 ; strain: IIIB ; read by: cytopathic effect / MTT ; result: 0.26 µM
Cc1cn([C@H]2C[C@H](N=[N+]=[N-])[C@@H](CO)O2)c(=O)[nH]c1=O ; strain: XM-Q151M ; mutations: RT-A62V V75I F77C F116Y Q151M ; read by: p24 ; result: 121 µM
CCOP(=O)(OC[C@H]1O[C@@H](n2cc(C)c(=O)[nH]c2=O)C[C@@H]1N=[N+]=[N-])C(N)=O ; strain: GKV-4046 ; read by: p24 ; result: 0.004 µM
O=C1Nc2cccnc2N(C2CC2)c2ncccc21 ; strain: IIIB ; read by: cytopathic effect / MTT ; result: 4 µM
CC(C)(C)NC(=O)[C@@H]1C[C@@H]2CCCC[C@@H]2CN1C[C@@H](O)[C@H](Cc1ccccc1)NC(=O)[C@H](CC(N)=O)NC(=O)c1ccc2ccccc2n1 ; strain: IIIB ; read by: cytopathic effect / MTT ; result: 0.0086 µg/mL
CCOC(=O)P(=O)(OC[C@H]1O[C@@H](n2cc(C)c(=O)[nH]c2=O)C[C@@H]1N=[N+]=[N-])OC1CCCCC1 ; strain: GKV-4046 ; read by: p24 ; result: 0.031 µM
Cc1c(O)cccc1C(=O)N[C@@H](CSc1ccccc1)[C@H](O)CN1C[C@H]2CCCC[C@H]2C[C@H]1C(=O)NC(C)(C)C ; strain: NL4-3 ; read by: p24 ; result: 0.025 µM
CCC(c1cc(=O)[nH]c(SC2CCCC2)n1)c1c(F)cccc1F ; strain: IIIB ; read by: p24 ; result: 0.08 µM
CC(C)Nc1cccnc1N1CCN(C(=O)c2cc3cc(NS(C)(=O)=O)ccc3[nH]2)CC1 ; strain: IIIB ; read by: p24 ; result: 0.05 µM
COc1nc(Cc2ccccc2)cc(=O)[nH]1 ; strain: IIIB ; read by: MTT / virus yield ; result: >200 µM
C=C(C)C12C[C@@H](COCc3ccccc3)[C@@]3(OO1)[C@@H]1[C@H]2OCCCCCCC[C@H](C)[C@@H]2[C@@H]3C3(O[C@]2(C)OC3=O)[C@H](O)[C@@]2(CO)O[C@@H]12 ; strain: NL4-3 ; read by: p24 / ELISA ; result: 0.091 µM
CC(C)(C)OC(=O)N[C@@H](Cc1ccccc1)[C@@H](O)C[C@@H](Cc1ccc(OCc2nn[nH]n2)cc1)C(=O)N[C@H]1c2ccccc2C[C@H]1O ; strain: IIIB ; read by: p24 ; result: >10 µM
C1CNCCNCCCN(CCCN2CCCNCCNCCCNCC2)CCNC1 ; strain: IIIB ; read by: cytopathic effect / MTT ; result: 0.87 µM